Anti-infective test results gathered from many reports (values: NIAID ChemDB through PubChem).

All rows: tests on isolated targets; agent: Toxoplasma gondii; target: Dihydrofolate reductase; read-out: IC50

ICn: concentration for n% inhibition. Lines come from different laboratories, so protocols vary.

smiles	value
Nc1nc(N)c2cc3ccc4ccccc4c3nc2n1	0.46 µM
Nc1nc(N)c2cc(COC(=O)c3ccccc3Cc3ccccc3)ccc2n1	0.31 µM
CC(Cc1coc2nc(N)nc(N)c12)c1ccc2ccccc2c1	11 µM
Nc1nc2[nH]c(CCc3cccc4ccccc34)cc2c(=O)[nH]1	>33 µM
C/C(=C\c1coc2nc(N)nc(N)c12)c1ccc2ccccc2c1	0.3 µM
COc1ccc2c(c1)-c1nc3nc(N)nc(N)c3cc1CC2	0.57 µM
Nc1nc2[nH]c(CCc3ccc4ccccc4c3)cc2c(=O)[nH]1	33 µM
CC(Cc1c[nH]c2nc(N)nc(N)c12)c1ccc(-c2ccccc2)cc1	0.0717 µM
Nc1nc(N)c2cc3c(nc2n1)CCc1ccccc1-3	0.16 µM
Nc1nc2[nH]c(CCc3ccccc3)cc2c(=O)[nH]1	39 µM
COc1cccc(OC)c1-c1cccc(C(=O)OCc2ccc3nc(N)nc(N)c3c2)c1	0.62 µM
COc1ccc2c(c1)CCc1nc3nc(N)nc(N)c3cc1-2	4.7 µM
Nc1nc(N)c2c(n1)-c1ccsc1CC2	101 µM
Nc1nc(N)c2cc(COC(=O)c3cc4ccccc4c4ccccc34)ccc2n1	1.8 µM
Nc1nc(N)c2c(n1)-c1ccccc1C2	20 µM
Cc1ccc(CCc2cc3c(=O)[nH]c(N)nc3[nH]2)cc1	>37 µM
COc1ccc(OC)c(C(C)Cc2c[nH]c3nc(N)nc(N)c23)c1	0.16 µM
COc1ccc(C(C)Cc2coc3nc(N)nc(N)c23)cc1OC	10 µM
CC/C=C/CC1=C(C)Cc2c(N)nc(N)nc21	30 µM
Nc1nc(N)c2cc(COC(=O)c3cccc(I)c3)ccc2n1	0.33 µM

Repeating the final 2 entries:

smiles | value
CC/C=C/CC1=C(C)Cc2c(N)nc(N)nc21 | 30 µM
Nc1nc(N)c2cc(COC(=O)c3cccc(I)c3)ccc2n1 | 0.33 µM